From article PMC7055873 (PLoS ONE, 2020) come the findings set out here.

The subject of this experiment is influenza A(H1N1)pdm09 viruses, neuraminidase (NA).

Values joined by “and” are separate entries in the source; they are usually repeats but may differ in a detail not shown here. Equal entries are not always repeated.

Regarding `CCC(CC)[C@H](NC(C)=O)[C@@H]1[C@H](O)[C@@H](C(=O)O)C[C@H]1N=C(N)N` [Peramivir, peramivir], the half-maximal inhibitory concentration (IC50) was 70 pM and 80 pM and 90 pM.
